Assay [1] has as its system SK-BR-3 cells (HER2++/CD71+). Briefly: cell killing activity in SK-BR-3 cells. It is filed as cell-based, human. Particulars: SK-BR-3, HER2 expressing; 1 target 2-components with trastuzumab-saporin.
The test system of assay [2] is MDA-MB-468 cells (EGFR++/CD71+). The assay is described as follows: cell killing activity in MDA-MB-468 cells. It is filed as cell-based, human.
The test system of a further assay is human A431 tumor cells. Briefly: A431 xenograft tumor model: ADC combined with cetuximab-SO1861 conjugate. It is filed as in vivo, mouse. Particulars: A431 xenograft in Balb/c nude mice, sub-optimal ADC dose. As for the experimental part:
Female Balb/c nude mice were injected subcutaneously with a suspension of human A431 tumor cells.
Under the skin of the mice, a human epidermal carcinoma developed in the xenograft animal tumor model. After injection of the tumor cells, the xenograft tumor was allowed to develop to a size of approximately 170-180 mm^3. The A431 tumor cells have the following characteristics: high EGFR expressors, medium CD71 expressors, low HER2 expressors.
In Table A, the results of the treatment of control mice and tumor-bearing mice are presented. Tumor-bearing mice were treated with the indicated antibodies directed to either human Her2/neu, human EGFR, or human CD71, which are cell-surface receptors on the xenograft tumor. Cetuximab was covalently conjugated with saponin SO1861. […] The ADCs trastuzumab-saporin (covalent conjugate) and anti-CD71 mAb (OKT-9, IgG)—saporin (covalent conjugate) were tested for their tumor-attacking efficacy in the mice, measured as tumor volume in time after start of the treatment with the ADCs. The dose of the ADCs was sub-optimal in the tumor model. That is to say, from previous experiments, it was established at which sub-optimal dose of the ADCs no tumor-regression or arrest of tumor growth would be observable.

Regarding “trastuzumab: anti-HER2 monoclonal antibody”, the toxin-mediated cell killing result in assay [1] is reported as “not induced”.

“Cetuximab: anti-EGFR monoclonal antibody [reference compound]”: in assay [2] (MDA-MB-468, high EGFR, 1 target 2-components with cetuximab-saporin), the toxin-mediated cell killing entry was “not induced”. In addition, in assay [2] (MDA-MB-468, 2 target 2 components, treatments as labelled), the “cell killing activity, controls” value is listed as “not induced”. Besides, the “outcome of the animals (death/euthanasia or survival)” value in the assay with human A431 tumor cells is “(death/euthanasia)”.

For the substance “Cetuximab-SO1861: cetuximab covalently conjugated with saponin SO1861 via EMCH linker to reduced cysteines”, in the assay with human A431 tumor cells, the “outcome of the animals (death/euthanasia or survival)” value is listed as “death/euthanasia”. In addition, the “tumor size (volume)” value with human A431 tumor cells (tumors 170-180 mm^3 at start) came out at 2000 mm^3.
